Results from patent US20060063727, “Tr4/tr2 response elements” (published 2006).
Protein sequences can lack the tags named with them. For some of these results: Construct, isoform or probe ends are uncertain for at least one entry.

Key:
[1] = molecular target: T1, TR4 orphan receptor (NR2C2) (Homo sapiens) (UniProt P49116); experiment: activity in cells; conditions: CHO cells, protein in cells, only the site is given
T1 sequence: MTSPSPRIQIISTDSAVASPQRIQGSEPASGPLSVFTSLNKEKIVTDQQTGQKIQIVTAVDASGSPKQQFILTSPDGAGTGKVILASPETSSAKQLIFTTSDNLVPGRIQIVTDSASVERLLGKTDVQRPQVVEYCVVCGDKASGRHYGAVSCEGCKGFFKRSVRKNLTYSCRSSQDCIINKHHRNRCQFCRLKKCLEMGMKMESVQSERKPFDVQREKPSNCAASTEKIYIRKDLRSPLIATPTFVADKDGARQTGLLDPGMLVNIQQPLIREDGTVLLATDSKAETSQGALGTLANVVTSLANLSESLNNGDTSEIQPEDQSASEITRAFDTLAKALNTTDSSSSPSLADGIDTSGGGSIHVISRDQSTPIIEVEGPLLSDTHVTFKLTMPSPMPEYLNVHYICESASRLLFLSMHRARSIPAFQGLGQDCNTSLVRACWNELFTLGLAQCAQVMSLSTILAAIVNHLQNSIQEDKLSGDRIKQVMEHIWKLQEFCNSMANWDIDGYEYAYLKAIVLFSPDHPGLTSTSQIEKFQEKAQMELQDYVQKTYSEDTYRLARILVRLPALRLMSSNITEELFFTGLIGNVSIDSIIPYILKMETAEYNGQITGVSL

[2] = molecular target: T2, TR2 orphan receptor (TR2-11, NR2C1) (Homo sapiens) (UniProt P13056); experiment: activity in cells; conditions: CHO cells, protein in cells, only the site is given
T2 sequence: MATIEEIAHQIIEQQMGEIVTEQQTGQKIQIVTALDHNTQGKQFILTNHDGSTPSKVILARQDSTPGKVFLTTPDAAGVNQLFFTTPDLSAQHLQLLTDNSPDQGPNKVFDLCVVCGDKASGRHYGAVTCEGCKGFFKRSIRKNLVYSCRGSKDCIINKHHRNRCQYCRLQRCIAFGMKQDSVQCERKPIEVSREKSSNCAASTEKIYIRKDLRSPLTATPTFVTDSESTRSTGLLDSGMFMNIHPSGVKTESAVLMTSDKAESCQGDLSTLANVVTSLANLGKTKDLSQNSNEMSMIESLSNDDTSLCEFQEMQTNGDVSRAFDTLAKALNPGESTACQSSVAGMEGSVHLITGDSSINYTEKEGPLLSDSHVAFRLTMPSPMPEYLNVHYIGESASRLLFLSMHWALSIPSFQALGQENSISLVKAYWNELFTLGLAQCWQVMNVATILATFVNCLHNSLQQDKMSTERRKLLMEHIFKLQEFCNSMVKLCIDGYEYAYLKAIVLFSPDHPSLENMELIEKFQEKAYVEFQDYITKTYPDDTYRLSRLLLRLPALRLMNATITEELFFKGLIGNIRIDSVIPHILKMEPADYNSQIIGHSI

[3] = -32TK-CAT reporter induced, both orientations
[4] = [none], dose-dependent CAT induction, letters built from the parent sequence and the stated change

Sequence | activity on this sequence [1, 3] | activity on this sequence [2, 3] | activity on this sequence [1, 4] | activity on this sequence [2, 4]
ATGTCACCCTAGTTCA (double strand) [HPV-16 DR4RE] | active | active |  | 
ATGTCACCCTAGTTCA (double strand) [HPV-16 LCR] |  |  | active | active
